Results of unrelated studies side by side (data: NIAID ChemDB).

All rows: tests in culture; agent: Mycobacterium avium intracellulare

ECn is the concentration giving n% inhibition of infection, replication or growth. A number after MIC or MFC names an inhibition level or a share of isolates. Rows are shuffled and stem from different studies. Blank or dashed fields: not listed here.

{"smiles": "NC[C@H]1O[C@H](O[C@H]2[C@H](O)[C@@H](O[C@H]3O[C@H](CO)[C@@H](O)[C@H](N)[C@H]3O)[C@H](N)C[C@@H]2N)[C@H](O)[C@@H](O)[C@@H]1O", "strain or isolate": "CIPT 140310030", "endpoint": "MIC", "value": "5 µg/mL"}
{"smiles": "CC[C@H]1OC(=O)[C@H](C)[C@@H](OC2C[C@@](C)(OC)[C@@H](O)[C@H](C)O2)[C@H](C)[C@@H](O[C@@H]2O[C@H](C)C[C@H](N(C)C)[C@H]2O)C(C)(O)C[C@@H](C)/C(=N\\OCCc2ccccc2)[C@H](C)[C@@H](O)[C@]1(C)O", "strain or isolate": "20066 (clarithromycin-susceptible)", "endpoint": "MIC", "value": "1.56 µg/mL"}
{"smiles": "CC[C@H]1OC(=O)[C@H](C)[C@@H](O[C@H]2C[C@@](C)(OC)[C@@H](O)[C@H](C)O2)[C@H](C)[C@@H](O[C@@H]2O[C@H](C)C[C@H](N(C)C)[C@H]2O)[C@](C)(OC)C[C@@H](C)C(=O)[C@H](C)[C@@H](O)[C@]1(C)O", "strain or isolate": "N-551 (HIV-)", "endpoint": "MIC", "value": "2 µg/mL"}
{"smiles": "CO[C@H]1/C=C/O[C@@]2(C)Oc3c(C)c(O)c4c(O)c(c5c(c4c3C2=O)NC2(CCN(CC(C)C)CC2)N=5)=NC(=O)/C(C)=C\\C=C\\[C@H](C)[C@H](O)[C@@H](C)[C@@H](O)[C@@H](C)[C@H](OC(C)=O)[C@@H]1C", "strain or isolate": "23-Feb", "endpoint": "MIC", "value": "0.5 µg/mL"}
{"smiles": "CCc1cc(C(C)(C)C)nc2c(NC(C)CCCN)cc(OC)c(Oc3cccc(C(F)(F)F)c3)c12", "endpoint": "EC50", "value": "20 µg/mL"}
{"smiles": "O/N=C/c1cccc[n+]1Cc1csc2ccccc12.[Cl-]", "method": "resazurin", "endpoint": "EC50", "value": ">20 µg/mL"}
{"smiles": "CCO/N=C1\\[C@H](C)CC(C)(O)[C@H](O[C@@H]2O[C@H](C)C[C@H](N(C)C)[C@H]2O)[C@@H](C)[C@H](O[C@H]2C[C@@](C)(OC)[C@@H](OC(C)=O)[C@H](C)O2)[C@@H](C)C(=O)O[C@H](CC)[C@@](C)(O)[C@H](O)[C@H]1C", "strain or isolate": "20066 (clarithromycin-susceptible)", "endpoint": "MIC", "value": ">50 µg/mL"}
{"smiles": "COc1cc2ccnc3c2c(c1OC(=O)c1cccc(C)c1)N(C)C=C3", "endpoint": "EC50", "value": "4 µg/mL"}
{"smiles": "CO[C@H]1/C=C/O[C@@]2(C)Oc3c(C)c(O)c4c(O)c(c5c(c4c3C2=O)NC2(CCN(CC(C)C)CC2)N=5)=NC(=O)/C(C)=C\\C=C\\[C@H](C)[C@H](O)[C@@H](C)[C@@H](O)[C@@H](C)[C@H](OC(C)=O)[C@@H]1C", "strain or isolate": "N-486 (HIV-)", "endpoint": "MIC", "value": "0.25 µg/mL"}
{"smiles": "CO[C@H]1/C=C/O[C@@]2(C)Oc3c(C)c(O)c4c(O)c(c5c(c4c3C2=O)NC2(CCN(CC(C)C)CC2)N=5)=NC(=O)/C(C)=C\\C=C\\[C@H](C)[C@H](O)[C@@H](C)[C@@H](O)[C@@H](C)[C@H](OC(C)=O)[C@@H]1C", "strain or isolate": "CIPT 140310023", "endpoint": "MIC", "value": "0.05 µg/mL"}
{"smiles": "CC[C@H]1OC(=O)[C@H](C)[C@@H](OC2C[C@@](C)(OC)[C@@H](OC(C)=O)[C@H](C)O2)[C@H](C)[C@@H](O[C@@H]2O[C@H](C)C[C@H](N(C)C)[C@H]2O)C(C)(O)C[C@@H](C)/C(=N\\OCCCOc2ccccc2)[C@H](C)[C@@H](O)[C@]1(C)O", "strain or isolate": "20066 (clarithromycin-susceptible)", "endpoint": "MIC", "value": "0.78 µg/mL"}
{"smiles": "OCNC(=S)c1cnccn1", "strain or isolate": "ATCC 13950", "endpoint": "MBC", "value": "100 µg/mL"}
{"smiles": "CCCCc1ccc(C(=O)Oc2c(OC)cc3ccnc4c3c2N(C)C=C4)cc1", "endpoint": "EC50", "value": "0.5 µg/mL"}
{"smiles": "CC[C@H]1OC(=O)[C@H](C)[C@@H](OC(=O)Cc2ccccn2)[C@H](C)[C@@H](O[C@@H]2O[C@H](C)C[C@H](N(C)C)[C@H]2O)C(C)(O)C[C@@H](C)/C(=N\\OCCCOc2ccccc2)[C@H](C)[C@@H](O)[C@]1(C)O", "strain or isolate": "20066 (clarithromycin-susceptible)", "endpoint": "MIC", "value": "6.25 µg/mL"}
{"smiles": "CN[C@@H]1[C@H](O[C@H]2[C@H](O[C@H]3[C@H](O)[C@@H](O)[C@H](N=C(N)N)[C@@H](O)[C@@H]3N=C(N)N)O[C@@H](C)[C@]2(O)C=O)O[C@@H](CO)[C@H](O)[C@H]1O", "strain or isolate": "N-752 (HIV-)", "endpoint": "MIC", "value": "0.125 µg/mL"}
{"smiles": "COc1cc2ccnc3c2c(c1OC(=O)c1ccc(C#N)cc1)N(C)C=C3", "endpoint": "EC50", "value": ">15 µg/mL"}
{"smiles": "CCC(C)C(=O)Oc1ccc(OC)cc1C1OC1C", "strain or isolate": "ATCC 19709", "endpoint": "MBC", "value": ">20 µg/mL"}
{"smiles": "CCN(CC)C(=O)Oc1c(OC)cc2ccnc3c2c1N(C)C=C3", "endpoint": "EC50", "value": ">15 µg/mL"}
{"smiles": "O/N=C/c1cc[n+](Cc2ccc(C[n+]3ccc(/C=N/O)cc3)s2)cc1.[Cl-].[Cl-]", "method": "resazurin", "endpoint": "EC50", "value": ">20 µg/mL"}
{"smiles": "Cc1c(F)c(N2CCNC(C)C2)cc2c1c(=O)c(C(=O)O)cn2C1CC1", "endpoint": "MIC90", "value": "12.5 µg/mL"}
{"smiles": "CC(C)(C)OCOC(=O)c1cnccn1", "strain or isolate": "ATCC 13950", "endpoint": "MBC", "value": "100 µg/mL"}
{"smiles": "C[C@@H](O)[C@H]1C(=O)N2C(C(=O)O)=C(SCCN=CN)C[C@H]12", "strain or isolate": "CIPT 140310001", "endpoint": "MIC", "value": "2 µg/mL"}
{"smiles": "C=CCc1ccc(OC(=O)/C(C)=C/C)cc1", "strain or isolate": "ATCC 19709", "endpoint": "EC50", "value": "7 µg/mL"}
{"smiles": "CC[C@H]1OC(=O)[C@H](C)[C@@H](O[C@H]2C[C@@](C)(OC)[C@@H](OC(C)=O)[C@H](C)O2)[C@H](C)[C@@H](O[C@@H]2O[C@H](C)C[C@H](N(C)C)[C@H]2OC(=O)NNCc2ccc(OC)cc2)C(C)(O)C[C@@H](C)/C(=N\\OCCCC2CCCCC2)[C@H](C)[C@@H](O)[C@]1(C)O", "strain or isolate": "20066 (clarithromycin-susceptible)", "endpoint": "MIC", "value": "0.39 µg/mL"}
{"smiles": "C[C@@H]1CN(c2c(F)c(N)c3c(=O)c(C(=O)O)cn(C4CC4)c3c2F)C[C@H](C)N1", "strain or isolate": "31 strains", "endpoint": "MIC90", "value": "12.5 µg/mL"}
{"smiles": "O/N=C/c1ccc[n+](Cc2cc(C[n+]3cccc(/C=N/O)c3)on2)c1.[Br-].[Br-]", "method": "resazurin", "endpoint": "EC50", "value": ">20 µg/mL"}
{"smiles": "CC[C@H]1OC(=O)[C@H](C)[C@@H](O[C@H]2C[C@@](C)(OC)[C@@H](OC(C)=O)[C@H](C)O2)[C@H](C)[C@@H](O[C@@H]2O[C@H](C)C[C@H](N(C)C)[C@H]2OC(=O)NNCc2cccc([N+](=O)[O-])c2)C(C)(O)C[C@@H](C)/C(=N\\OCCCC2CCCCC2)[C@H](C)[C@@H](O)[C@]1(C)O", "strain or isolate": "20066 (clarithromycin-susceptible)", "endpoint": "MIC", "value": "0.39 µg/mL"}
{"smiles": "COc1cc2ccnc3c2c(c1OC(=O)c1ccc(CCl)cc1)N(C)C=C3", "endpoint": "EC50", "value": "5 µg/mL"}
{"smiles": "NC(=O)c1cc[n+](CCCC[n+]2ccccc2/C=N/O)cc1.[Br-].[Br-]", "method": "resazurin", "endpoint": "EC50", "value": ">20 µg/mL"}
{"smiles": "CCCCO/N=C1\\[C@H](C)CC(C)(O)[C@H](O[C@@H]2O[C@H](C)C[C@H](N(C)C)[C@H]2O)[C@@H](C)[C@H](OC2C[C@@](C)(OC)[C@@H](O)[C@H](C)O2)[C@@H](C)C(=O)O[C@H](CC)[C@@](C)(O)[C@H](O)[C@H]1C", "strain or isolate": "20066 (clarithromycin-susceptible)", "endpoint": "MIC", "value": "1.56 µg/mL"}
{"smiles": "COc1cc2ccnc3c2c(c1OC(=O)c1ccc(F)c(F)c1)N(C)C=C3", "endpoint": "EC50", "value": "5.5 µg/mL"}
{"smiles": "COc1c(O)c2c(=O)cc(OC)c3c4c(OC)cc(=O)c5c(O)c(OC)c6c(c(c1CC(C)=C6OC(C)=O)c23)c54", "endpoint": "MBC", "value": ">100 µg/mL"}
{"smiles": "CCCCCCCCCCO/N=C1\\[C@H](C)CC(C)(O)[C@H](O[C@@H]2O[C@H](C)C[C@H](N(C)C)[C@H]2O)[C@@H](C)[C@H](OC2C[C@@](C)(OC)[C@@H](O)[C@H](C)O2)[C@@H](C)C(=O)O[C@H](CC)[C@@](C)(O)[C@H](O)[C@H]1C", "strain or isolate": "20066 (clarithromycin-susceptible)", "endpoint": "MIC", "value": "6.25 µg/mL"}
{"smiles": "O/N=C/c1cc[n+](Cc2cc(C[n+]3ccc(/C=N/O)cc3)on2)cc1.[Br-].[Br-]", "method": "resazurin", "endpoint": "EC50", "value": ">20 µg/mL"}
{"smiles": "COc1cc2ccnc3c2c(c1OC(=O)c1ccc(OC(F)(F)F)cc1)N(C)C=C3", "endpoint": "EC50", "value": "1 µg/mL"}
{"smiles": "Cc1onc(-c2ccccc2Cl)c1C(=O)N[C@@H]1C(=O)N2[C@@H]1SC(C)(C)[C@@H]2C(=O)O", "strain or isolate": "CIPT 140310021", "endpoint": "MIC", "value": "100 µg/mL"}

A second listing of 2 rows from above:

smiles,strain or isolate,method,endpoint,value
Cc1onc(-c2ccccc2Cl)c1C(=O)N[C@@H]1C(=O)N2[C@@H]1SC(C)(C)[C@@H]2C(=O)O,CIPT 140310021,-,MIC,100 µg/mL
O/N=C/c1cc[n+](Cc2cc(C[n+]3ccc(/C=N/O)cc3)on2)cc1.[Br-].[Br-],-,resazurin,EC50,>20 µg/mL